Results taken from ChEMBL document CHEMBL5606458, “ASAP - ZIKV NS2B-NS3 protease fluorescence single point” (2024).
Only a part is listed here, and it is no random draw.

The chains behind the UniProt entries cited, without tags or fusion partners. Residues count along the entry.
UniProt A0A024AXB9, 1-66: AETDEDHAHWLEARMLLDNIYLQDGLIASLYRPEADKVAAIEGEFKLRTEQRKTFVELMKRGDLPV

Biological target: Nonstructural protein 3 (Zika virus) (UniProt A0A024AXB9)

SMILES: O=c1[nH]c2ccccc2n1C1CCN(Cc2c[nH]c3ccccc23)CC1
- inhibition (PRVABC59, Concentration 49.5 uM, Number of replicates 2.0, Standard deviation 1.0391268411134233 %): 55.8%
- inhibition (PRVABC59, Concentration 99.01 uM, Number of replicates 2.0, Standard deviation 0.0031235872368393786 %): 72%
- inhibition (PRVABC59, Concentration 198.0 uM, Number of replicates 2.0, Standard deviation 0.014042655574253717 %): 84.5%
